From article PMC8566587, “Selection for constrained peptides that bind to a single target protein” (Nature Communications, 2021) come the findings set out here.

The test system of the assay is RBD (residues 328-533 of the SARS-CoV-2 Spike protein). In kind it is cell-based.

In the case of TSFAEYWNLLSP [PMI], the “binding to RBD (in words)” value is reported as “does not bind” and the “reduction of fluorescence output of the circuit (in words)” value was “almost two orders-of-magnitude lower”.
